This note sets out measurements from article PMC4823272 (Frontiers in Microbiology, 2016).

This experiment concerns HA of the H1N1 strain (A/New Caledonia/20/99). Put plainly: AFM binding of H1 HA to lipid membranes (HA-bound area). The conditions noted are these: 25°C, 1 h, n = 3. Set-up: species or system influenza virus A/New Caledonia/20/99 (H1N1).

Substance Neu5Acα2–3Galβ1–4Glcβ1–1′Cer [GM3] yielded an HA-bound area ([H1 HA] = 19 μM (Figure 6B)) of 48%. Also, the “H1 HA binding, result in words” value ([HA] = 2.4–24 nM, HA-bound area) was “increased in proportion to HA concentrations”.
